Results from PubChem BioAssay AID504753 (Sanford-Burnham Center for Chemical Genomics, 2011).
The list shows a part of the results, in another mix than the full data. The source made the active and inactive calls.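 Rule for the calls: active = inhibition of at least 50% at 20 µM in any single replicate; inactive = the rest.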

Tested on: glucose-6-phosphate dehydrogenase-6-phosphogluconolactonase (PfGluPho), Plasmodium falciparum 3D7
Test: PfG6PD inhibitors, hit retest, confirmation, biochemical, fluorescence intensity, single concentration (AID 504753);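 note: 0% = DMSO with substrate and 100% = DMSO lacking glucose-6-phosphate substrate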
Settings: recombinant PfGluPho, NADPH-diaphorase-resazurin fluorescence; at 20 µM; stronger effect = higher value

| SMILES | inhibition |
| --- | --- |
| C[N+]1=C2C=CC=CC=C2SC12C([N+](=O)[O-])=CC([N+](=O)[O-])=C[C-]2[N+](=O)[O-] (stereo not drawn) | inactive: 17.9% |
| CN(C)C(=O)c1cc([N+](=O)[O-])cc2c1-c1c(cc([N+](=O)[O-])cc1[N+](=O)[O-])C2=O | active: 99.2% |
| O=P(Nc1nccs1)(c1ccccc1)c1nc2ccccc2s1 (stereo not drawn) | inactive: 45.9% |
